Test results published in PMC3679007 (PLoS ONE, 2013).

Target: clade 2.1 HPAI H5N1 isolates from Indonesia (neuraminidase) (Influenza A virus, UniProt F5HQR3)
Conditions: read-out: IC50, Mean; Batch 2; log10 transformed, back transformed

Substance: oseltamivir
- IC50: 23.3 nM
